Experimental findings from ChEMBL document CHEMBL4373723 (J Med Chem, 2019) are described below.

The target in data set [1] is T1, Frizzled-7 (Homo sapiens, UniProt O75084). Nature of the data set: Binding affinity to recombinant human Frizzled-7 (Gln33 to Leu185 residues)/human IgG1 chimeric protein expressed in CHO cells assessed as dissociation rate constant by SPR assay.
Data set [2] addresses T1, Frizzled-7. Nature of the data set: Binding affinity to recombinant human Frizzled-7 (Gln33 to Leu185 residues)/human IgG1 chimeric protein expressed in CHO cells by SPR assay.
Data set [3] in a line: Stability in presence of 0.1 to 100 mM TCEP assessed as disulfide reduction at higher level of TCEP at 20 uM measured over 40 mins at 37 degC by LC-MS analysis.
Data set [4] is described as follows: Stability in mouse serum at 200 uM at 37 degC measured over 24 hrs by LC-MS analysis.
Data set [5] is described as follows: Stability in presence of DTT assessed as disulfide reduction at 20 uM measured over 40 mins at 37 degC by LC-MS analysis.
Data set [6] is described as follows: Stability in cell culture medium containing 10% fetal bovine serum at 200 uM at 37 degC measured after 6 hrs by LC-MS analysis. The settings on record: cattle.

With `CSCC[C@H](NC(=O)[C@@H](NC(=O)[C@H](Cc1cnc[nH]1)NC(=O)[C@H](C[Se][Se]C[C@H](NC(=O)[C@H](Cc1c[nH]c2ccccc12)NC(=O)[C@H](Cc1ccccc1)NC(=O)[C@H](CCC(=O)O)NC(=O)[C@H](CC(C)C)NC(=O)[C@H](CC(=O)O)NC(=O)[C@H](CC(=O)O)NC(=O)[C@H](CO)NC(C)=O)C(=O)N[C@@H](Cc1cnc[nH]1)C(=O)N[C@H](C(=O)N[C@@H](CCSC)C(=O)N[C@@H](Cc1ccc(O)cc1)C(N)=O)C(C)C)NC(=O)[C@H](Cc1c[nH]c2ccccc12)NC(=O)[C@H](Cc1ccccc1)NC(=O)[C@H](CCC(=O)O)NC(=O)[C@H](CC(C)C)NC(=O)[C@H](CC(=O)O)NC(=O)[C@H](CC(=O)O)NC(=O)[C@H](CO)NC(C)=O)C(C)C)C(=O)N[C@@H](Cc1ccc(O)cc1)C(N)=O`, the results for the Kd on Frizzled-7 [1] and on Frizzled-7 [2] were 1 ×10⁻³ /s and 0.19 nM, respectively. The Stability result in data set [3] is “Unstable”; in data set [4], “Stable”; in data set [6] it was “Stable”. Also, the Drug degradation in data set [5] amounted to 30%.
